Laboratory results published in publication PMC10221217 (Viruses, 2023).

Chains of the proteins cited; added tags and fusions are not shown.
UniProt P61073, whole entry: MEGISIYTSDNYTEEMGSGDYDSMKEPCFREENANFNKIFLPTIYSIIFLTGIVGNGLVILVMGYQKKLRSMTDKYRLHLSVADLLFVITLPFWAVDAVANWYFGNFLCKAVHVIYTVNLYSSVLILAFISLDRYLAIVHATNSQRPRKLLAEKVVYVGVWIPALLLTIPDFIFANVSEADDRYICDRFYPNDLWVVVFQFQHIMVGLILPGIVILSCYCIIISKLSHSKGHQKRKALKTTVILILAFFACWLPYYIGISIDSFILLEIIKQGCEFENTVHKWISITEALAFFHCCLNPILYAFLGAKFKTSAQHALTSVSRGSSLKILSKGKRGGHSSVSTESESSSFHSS

Molecular target: T1, CXCR4 (Homo sapiens, UniProt P61073)
T1 construct: expressed in transfected cells
Test: CXCR4 competitive binding assay (anti-CXCR4 mAb 12G5)

## CC[C@@H](C)[C@H]1NC(=O)[C@@H](CO)NC(=O)[C@@H](CC(C)C)NC(=O)[C@@H](CCCNC(=N)N)NC(=O)[C@@H](CCCNC(=N)N)NC(=O)[C@@H](CCCNC(=N)N)NC(=O)[C@@H]([C@H](C)O)NC(=O)[C@@H](CC(N)=O)NC(=O)[C@@H](CC(N)=O)NC(=O)[C@@H](CC(N)=O)NC(=O)[C@H]2CCCN2C(=O)[C@@H](CCCNC(=N)N)NC(=O)[C@@H]([C@H](C)O)NC(=O)[C@H](NC(=O)[C@@H](CC(N)=O)NC(=O)[C@H](NC(=O)[C@H](NC(=O)[C@H](NC(=O)[C@@H](CO)NC(=O)[C@H](N)CCC(=O)O)C(C)C)C(C)C)[C@H](C)CC)CSSC[C@H](C(=O)N[C@H](CC(N)=O)C(=O)N[C@@H](C(=O)N[C@H](CO)C(N)=O)[C@H](C)CC)NC(=O)[C@@H](Cc2c[nH]cn2)NC(=O)[C@@H](C)NC(=O)[C@@H](CCC(N)=O)NC(=O)[C@@H](CCCNC(=N)N)NC(=O)[C@@H]([C@H](C)CC)NC(=O)[C@@H](CC(=O)O)NC(=O)CNC(=O)[C@@H]([C@H](C)CC)NC(=O)[C@@H]([C@H](C)CC)NC(=O)[C@@H](CC(N)=O)NC(=O)[C@@H](CCCNC(=N)N)NC(=O)[C@@H](CCCNC(=N)N)NC(=O)[C@@H](C)NC(=O)[C@@H](Cc2ccc(O)cc2)NC(=O)[C@@H](Cc2ccccc2)NC(=O)[C@@H](C)NC(=O)[C@@H](CCCNC(=N)N)NC(=O)CNC(=O)[C@H]2CCCN2C(=O)CNC1=O [D-V3 loop peptide]
anti-CXCR4 antibody 12G5 competitive binding
  comparison of CXCR4 binding of L- and D-peptide (in words): comparable binding recognition to the CXCR4 receptor
Concluded from CXCR4 and CCR5 competitive binding
  CXCR4 selectivity over CCR5 (in words): CXCR4 binding was selective
